Experimental data as given in publication PMC10657842.

Tested on: MvaT-His
Experiment: EMSA
Details: 0.5-2 uM MvaT, 20 ng probe; recombinant protein; residues 1-125; protein details: C-terminal His (pET28a NcoI-XhoI); probe letters rebuilt from the primers and the genome

ATACGGCCTGCGAACTCGGCAAGCAGTCGGTTGACCTTGCTCGTTAAATCCATGGGGGCGCCTCCTAAAGCTCAGCGCATGCTAGCACCGGGCTATGCATCGCTTTTGTCACTGAGAGACTTTTCTTTTAAGAAAAAAGCCACATCGCTGTGGCCTTTTCCTCCCGCGCGGAGACGGCTCAGACCACTCCGGCCGCCGCACGCCAGGCCTGGTTATGGCTCTGGGTGTACTGCTGGATGAGCTGCAGGACGTCCTTCATGAAGCCGGCATCGAAGCTCATCTGGTCCTCGACCTTCTGCTTCTGGCTCTGCCCGATGGTGGCGTTGACCTCTCCTTCCCGGGCGCTCGCCTGCGATTCGCCCTGGCGCACCTGGACCGAGGCGTTGGCCATCTGGACGAAGGACTGGATCACCGTGTTGGCCACCTGCAGGGCGCCGTTGCGGCTCTCGAAGGCACGGCCCGCCGCACGCAACGCCACACTGTCCTGCACCTGGTCCGCC (double strand) [PexsC promoter EMSA probe]
binding result: binds
